A mixed list of measured activities; the numbers were collected in NIAID ChemDB.

Shared fields: tests in culture; agent: Mycobacterium avium; measure: MIC

Blank or dashed fields: not listed here. a–b is a range or a potency band. Lines come from different laboratories, so protocols vary.

structure	strain or isolate	changes	method	setting	result
Fc1cccc(CSc2ncn[nH]2)c1	MY330/88				250 µM
Oc1cc(Cl)ccc1C(=S)NCc1ccc(Cl)c(Cl)c1	MY330/88				16 µg/mL
CS(C)=O	2151		resazurin		>1 µg/mL
Fc1ccc(C(Cn2ccnc2)OC/C=C/c2ccccc2)cc1	103317				12.6 µM
N/C(=N\N=C\c1ccncc1)c1cnccn1					>16 µg/mL
Cc1ccc2oc(=S)n(-c3ccc(Cl)cc3)c(=S)c2c1	MY330/88			14 d	4 µM
FC(F)(F)C(F)(F)C(F)(F)C(F)(F)c1nc2c(Cl)cc(Cl)cc2[nH]1	MY330/88				16 µM
O=C(Nc1cccc(N2CCSCC2)c1)c1ccc(-c2ccccc2)cc1	103317				82.5 µM
Cc1ccn2c(C(=O)NCc3ccc(N4CCOCC4)c(F)c3)c(C)nc2c1	2151		resazurin		2–10 µM
O=C(Nc1ccccc1)c1ccccc1O	CNCTC MY330/88				62.5 µM
Cc1ccc2c(=O)n(-c3ccc(Cl)c(Cl)c3)c(=O)oc2c1	CNCTC MY330/88				8 µM
CCCCCCOc1ccccc1NC(=O)OCC[NH+]1CCCC1	MY330/88				32 µM
O=C(Nc1cccc(F)c1)c1ccccc1O	CNCTC MY330/88				62.5 µM
CCCCOc1ccc(NC(=O)OCC[NH+]2CCCC2)cc1	MY330/88				125 µM
O/N=C(\Cn1ccnc1)c1ccc(F)cc1	103317				146 µM
O=C(Nc1ccc(F)cc1)c1ccc(Cl)cc1OS(=O)(=O)c1ccccc1	330/88			14 d	32 µM
Clc1ccc(/C(Cn2ccnc2)=N/OCc2cccc3ccccc23)c(Cl)c1	103317				19.5 µM
Cc1nc2scc(-c3ccco3)c2c(=O)n1/N=C/c1ccccc1	CNCTC MY330/88				50 µM
O=C(Nc1ccccc1)c1ncccc1O	CNCTC MY330/88				125 µM
CC(C)N=c1cc2n(-c3ccc(Cl)cc3)c3ccccc3nc-2cc1Nc1ccc(Cl)cc1	19894				5 µg/mL
O=C(Oc1ccc(Cl)cc1C(=O)Nc1cccc(Cl)c1)c1cnccn1	330/88			14 d	8 µM
COc1cccc(NC(=O)OCC[NH+]2CCCC2)c1	MY330/88				>1000 µM
CC(C)(C)c1ccc(CNC(=O)c2ccccc2O)cc1	MY330/88				32 µg/mL
O=C(Oc1ccc(Cl)cc1C(=O)Nc1ccc(Br)cc1)c1cnccn1	330/88			14 d	8 µM
O=c1oc2ccc(F)cc2c(=O)n1-c1ccc(Cl)cc1	CNCTC MY330/88				16 µM
O=C(NCc1cccc([N+](=O)[O-])c1)c1ncccc1S	CNCTC MY330/88				16 µM
Cc1ccc(-n2c(=O)oc3ccc(Cl)cc3c2=O)cc1	CNCTC MY330/88				16 µM
O=c1oc2ccc(Br)cc2c(=S)n1-c1ccc(Cl)c(Cl)c1	MY330/88			21 d	62.5 µM
CCCCCCCOc1ccccc1NC(=O)OCC[NH+]1CCCC1	MY330/88				32 µM
CC(C)N=C(N)/N=C(\N)NOCCCOc1ccc(Cl)c(Cl)c1	101				1.95 µg/mL
O=C(Oc1ccc(Cl)cc1C(=O)Nc1ccc(Cl)cc1)c1cnccn1	330/88			14 d	4 µM
O=C(Nc1ccc(Cl)c(Cl)c1)c1ccccc1O	CNCTC MY330/88				31 µM
Cc1cc(NC(=O)c2cc(F)ccc2O)no1	MY330/88				250 µM
COc1ccc2oc(=O)n(-c3ccc(Cl)cc3)c(=S)c2c1	MY330/88			14 d	32 µM
Cc1cccc(C(N)=Nc2nc(-c3ccccn3)cc3ccccc23)c1	LR-25				2 µg/mL
Fc1ccc(/C(Cn2ccnc2)=N/OCc2cccc3ccccc23)cc1	103317				22.2 µM
O=C(Nc1cccc(Cl)c1)c1ccc(Cl)cc1OS(=O)(=O)c1ccccc1	330/88			21 d	500 µM
N/C(=N\N=C\c1ccccn1)c1cnccn1					>16 µg/mL
O/N=C(/Cn1ccnc1)c1ccc(Cl)cc1	103317				33.9 µM
N/C(=N\N=C\c1nc2cc(Cl)ccc2o1)c1cnccn1					>16 µg/mL
Cc1ccc(C(=O)Nc2cncs2)c(O)c1	MY330/88				125 µM
Cc1ccc(O)c(C(=O)NCc2ccc(Cl)cc2)c1	MY330/88				62.5 µg/mL
FC(F)(F)c1cc(CSc2ncn[nH]2)cc(C(F)(F)F)c1	MY330/88				500 µM
O=c1oc2ccc([N+](=O)[O-])cc2c(=O)n1-c1ccc(Br)cc1	CNCTC MY330/88				125 µM
O=C(Nc1ccc(C(F)(F)F)cc1)c1ccccc1O	CNCTC MY330/88				16 µM
O=c1oc2ccc(Br)cc2c(=S)n1-c1ccc(Br)cc1	MY330/88			14 d	32 µM
COc1ccc(NC(=O)OCC[NH+]2CCCC2)cc1	MY330/88				>1000 µM
CC[C@H]1OC(=O)[C@H](C)C(=O)[C@H](C)[C@@H](O[C@@H]2O[C@H](C)C[C@H](N(C)C)[C@H]2O)[C@](C)(OC)C[C@@H](C)C(=O)[C@H](C)[C@H]2N(CCCCn3cnc(-c4cccnc4)c3)C(=O)O[C@]12C	Isolate 1295				≥40 µg/mL
CC(C)(C)c1ccc(CNC(=S)c2ccccc2O)cc1	MY330/88				0.25 µg/mL
O=C(Nc1ccc(Br)cc1)c1cc(Cl)ccc1OS(=O)(=O)c1ccccc1	330/88			14 d	32 µM
N/C(=N\N=C\c1nc2ccccc2o1)c1ccccn1					>16 µg/mL
CCOC1Oc2ccc(C)cc2C(=O)/C1=C/Nc1nc2ccccc2s1	MY 80/72				>100 µg/mL
Cc1ccnc(NC(=O)c2ccc(Cl)cc2O)n1	MY330/88				500 µM
Cc1ccc(CNC(=O)c2ncccc2O)cc1	CNCTC MY330/88				125 µM
O=[N+]([O-])c1ccc(Sc2nc3c(Br)cc(Br)cc3[nH]2)cc1	MY330/88				8 µM
CCCCOc1ccc(NC(=O)OCC[NH+]2CCCC2)cc1	MY330/88				125 µM
Cc1ccnc(NC(=O)c2cc(Cl)ccc2O)n1	MY330/88				250 µM
Cc1cccc(CNC(=S)c2ccccc2O)c1	MY330/88				0.5 µg/mL
Cc1ccc2oc(/C=N/N=C(\N)c3ccccn3)nc2c1					>16 µg/mL
O=C(Nc1ccc([N+](=O)[O-])cc1)c1ccccc1O	CNCTC MY330/88				31 µM
O=c1oc2ccc(F)cc2c(=S)n1-c1ccc(Br)cc1	MY330/88			14 d	4 µM
COc1ccccc1NC(=O)OCC[NH+]1CCCC1	MY330/88				>1000 µM
Cc1cccc(O)c1C(=O)NCc1ccc(Cl)cc1	MY330/88				32 µg/mL
Cc1ccc2oc(=S)n(-c3cccc(Cl)c3)c(=S)c2c1	MY330/88			14 d	2 µM
CCOc1cccc(NC(=O)OCC[NH+]2CCCC2)c1	MY330/88				>1000 µM
Cc1nc2scc(-c3ccco3)c2c(=O)n1NC(=O)c1ccc([N+](=O)[O-])cc1	CNCTC MY330/88				22 µM
CCOC1Oc2ccc(Cl)cc2C(=O)/C1=C/Nc1nc2ccc(Cl)cc2s1	MY 80/72				>100 µg/mL
O=c1oc2ccc(Cl)cc2c(=O)n1-c1ccc(Cl)cc1	CNCTC MY330/88				8 µM
O=[N+]([O-])c1cc(Sc2nc3c(Br)c(Br)c(Br)c(Br)c3[nH]2)cc([N+](=O)[O-])c1	MY330/88				>250 µM
NC(=O)c1cnccn1	330/88			14 d	>1000 µM
Clc1ccccc1CSc1ncn[nH]1	MY330/88				1000 µM
Oc1cc(Cl)cc(Cl)c1C(=S)NCc1ccc(Cl)c(Cl)c1	MY330/88				62.5 µg/mL
Cc1nc2scc(-c3ccco3)c2c(=O)n1N	CNCTC MY330/88				515 µM
O=C(Nc1cncs1)c1cc(F)ccc1O	MY330/88				1000 µM
Cc1nc2scc(-c3ccco3)c2c(=O)n1NC(=O)C1CC1	CNCTC MY330/88				218 µM
CCCOc1cccc(NC(=O)OCC[NH+]2CCCC2)c1	MY330/88				500 µM
Cc1ccn2c(C(=O)NCc3ccc(N4CCSCC4)c(F)c3)c(C)nc2c1	2151		resazurin		2–10 µM
O=C(Nc1cccc(C(F)(F)F)c1)c1ccc(Cl)cc1OS(=O)(=O)c1ccccc1	330/88			21 d	125 µM
O=[N+]([O-])c1cc(CSc2ncn[nH]2)cc([N+](=O)[O-])c1	MY330/88				500 µM
Cc1nc2scc(-c3ccco3)c2c(=O)n1NC(=O)c1ccco1	CNCTC MY330/88				40 µM
FC(F)(F)C(F)(F)C(F)(F)C(F)(F)c1nc2cc(Cl)c(Cl)cc2[nH]1	MY330/88				4 µM
CCc1nc2ccc(Cl)cn2c1C(=O)NCc1ccc(N2CCC(c3ccc(OC(F)(F)F)cc3)CC2)cc1	101		resazurin		<2 µM
Clc1ccc(/C(Cn2ccnc2)=N\OCc2cccc3ccccc23)c(Cl)c1	103317				19.5 µM
CCCCCOc1ccccc1NC(=O)OCCN1CCCCC1	MY330/88				125 µM
CCNC1Oc2cc(C)c(C)cc2C(=O)/C1=C/Nc1ccc2[nH]c(=S)sc2c1	MY 80/72				>5 µg/mL
Cc1ccc2c(=O)n(-c3ccc(C#N)cc3)c(=O)oc2c1	CNCTC MY330/88				32 µM
Cc1ccc2oc(=O)n(-c3ccc(Cl)cc3)c(=S)c2c1	MY330/88			14 d	2 µM
O=C(NC1CCCCC1)N(C(=O)c1cnccn1)C1CCCCC1	330/88			14 d	500 µM
O=C(N/N=C/c1coc2ccccc2c1=O)c1ccncc1	MY 80/72				>100 µg/mL
CCc1nc2ccc(Cl)cn2c1C(=O)NCc1ccc(N2CCSCC2)c(F)c1	104	Gentamicin-resistant	resazurin		<0.0078 µg/mL
Cc1ccc2occ(/C=N/NC(=O)c3cc(O)c(O)c(O)c3)c(=O)c2c1	MY 80/72				>100 µg/mL
CCOC(=O)c1ccc(-n2c(=O)oc3ccccc3c2=O)cc1	CNCTC MY330/88				62.5 µM

Repeating the final 10 entries:

structure,strain or isolate,changes,method,setting,result
Clc1ccc(/C(Cn2ccnc2)=N\OCc2cccc3ccccc23)c(Cl)c1,103317,,,,19.5 µM
CCCCCOc1ccccc1NC(=O)OCCN1CCCCC1,MY330/88,,,,125 µM
CCNC1Oc2cc(C)c(C)cc2C(=O)/C1=C/Nc1ccc2[nH]c(=S)sc2c1,MY 80/72,,,,>5 µg/mL
Cc1ccc2c(=O)n(-c3ccc(C#N)cc3)c(=O)oc2c1,CNCTC MY330/88,,,,32 µM
Cc1ccc2oc(=O)n(-c3ccc(Cl)cc3)c(=S)c2c1,MY330/88,,,14 d,2 µM
O=C(NC1CCCCC1)N(C(=O)c1cnccn1)C1CCCCC1,330/88,,,14 d,500 µM
O=C(N/N=C/c1coc2ccccc2c1=O)c1ccncc1,MY 80/72,,,,>100 µg/mL
CCc1nc2ccc(Cl)cn2c1C(=O)NCc1ccc(N2CCSCC2)c(F)c1,104,Gentamicin-resistant,resazurin,,<0.0078 µg/mL
Cc1ccc2occ(/C=N/NC(=O)c3cc(O)c(O)c(O)c3)c(=O)c2c1,MY 80/72,,,,>100 µg/mL
CCOC(=O)c1ccc(-n2c(=O)oc3ccccc3c2=O)cc1,CNCTC MY330/88,,,,62.5 µM